Results: the supplement of paper PMC9931576
Human monoclonal antibodies against the spike receptor-binding domain (heavy:light variable regions). IC50 against pseudoviruses bearing the spike of naturally observed variants; lower = stronger; >10 µg/ml means not reached at the top dose. No active / inactive call. The stated detection limit is 0.0005 µg/ml; values near or below 0.001 µg/ml lie at the floor of the assay.

Assays:
Assay in all cases: pseudovirus neutralization IC50; higher = weaker neutralization
[1] = molecular target: SARS-CoV-2 Omicron BA.1 spike pseudovirus
Method: (§1)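 Single-round VSV luciferase pseudovirus mixed with antibody dilutions for 1 h and put on Huh-7 cells for about a day; IC50 from the dose curve.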

[2] = molecular target: SARS-CoV-2 Omicron BA.2 spike pseudovirus
Method: as §1

[3] = molecular target: SARS-CoV-2 Omicron BA.2.75 spike pseudovirus
Method: as §1

[4] = molecular target: SARS-CoV-2 Omicron BA.5 spike pseudovirus
Method: as §1

[5] = molecular target: SARS-CoV-2 Omicron BQ.1.1 spike pseudovirus
Method: as §1

[6] = molecular target: SARS-CoV-2 Omicron XBB spike pseudovirus
Method: as §1

[7] = molecular target: SARS-CoV-2 early D614G spike pseudovirus
Method: as §1

B1: BD55-905 (protein)
chain 1: QVQLVESGGGVVQPGRSLRLSCAASGFSFSIYGMHWVRQAPGKGLEWVAVISYDGSSKYYGDSVKGRFTISRDNSKNTLYLQMNSLSADDTAIYYCAKTGYYFDSGAYYYWFDPWGQGTLVTVSS
chain 2: EIVLTQSPGTLSLSPGERATLSCRASQSVSSNYLAWYQQKPGQAPRLLIYGASSRATGIPDRFSGSGSGTHFTLTITRLEPEDFAVYYCQHYGSSPPFTFGPGTKVDIK
[1]
  pseudovirus neutralization IC50: > 10 µg/mL
[2]
  pseudovirus neutralization IC50: > 10 µg/mL
[3]
  pseudovirus neutralization IC50: > 10 µg/mL
[4]
  pseudovirus neutralization IC50: > 10 µg/mL
[5]
  pseudovirus neutralization IC50: > 10 µg/mL
[6]
  pseudovirus neutralization IC50: > 10 µg/mL
[7]
  pseudovirus neutralization IC50: > 10 µg/mL

B2: BD55-917 (protein)
chain 1: QVQLVQSGAEVRKPGSSVTVACKSSEDIFNTYAFGWVRQAPGQGPEWMGRIIPRLNSISSAQKFRGRVSITADTSTTTVYLELISLRYEDTAVYYCARGRGGGWSEFDDWGRGTLVTVSS
chain 2: DNQMTQSPTSLSASVGDRVTIACRASQSVNTFLNWYQQPPGKPPKLLISAASRLENGVPSRFSGSGSGTDFTLTITNLQPEDFATYYCQQSYFAPFNFGPGTKVDIK
[1]
  pseudovirus neutralization IC50: > 10 µg/mL
[2]
  pseudovirus neutralization IC50: > 10 µg/mL
[3]
  pseudovirus neutralization IC50: > 10 µg/mL
[4]
  pseudovirus neutralization IC50: > 10 µg/mL
[5]
  pseudovirus neutralization IC50: > 10 µg/mL
[6]
  pseudovirus neutralization IC50: > 10 µg/mL
[7]
  pseudovirus neutralization IC50: 0.0793 µg/mL

B3: BD55-918 (protein)
chain 1: QVQLVESGGGVVQHGRSLRLSCAASGFTFNDYAMYWVRQAPGKGLEWVAVISFDGSTRYYTDSVKGRLTISRDNSKNTLYLQMNSLRAEDTAVYYCARDLLRYFDWLYGMDVWGQGTTVTVSS
chain 2: QSALTQPRSVSGSPGQSVTISCTGTSSDVGDYDYVSWYQQHPGKAPKLIIYDVSKRPSGVPDRFSGSKSGNTASLTISGLQAEDEADYYCYSYAGSYTLGVFGGGTKLPVL
[1]
  pseudovirus neutralization IC50: > 10 µg/mL
[2]
  pseudovirus neutralization IC50: > 10 µg/mL
[3]
  pseudovirus neutralization IC50: > 10 µg/mL
[4]
  pseudovirus neutralization IC50: > 10 µg/mL
[5]
  pseudovirus neutralization IC50: > 10 µg/mL
[6]
  pseudovirus neutralization IC50: > 10 µg/mL
[7]
  pseudovirus neutralization IC50: > 10 µg/mL

B4: BD55-927 (protein)
chain 1: QVQLQQSGPGLVKPSQTLSLTCAISGDSVSSNSAAWNWIRQSPSRGLEWLGRTYYRSKWYNDYAVSVKSRITLNPDTSKNQFSLQLSSVTPEDTAVYYCAREGELPWFGEGAFDVWGLGTMITVSS
chain 2: EIVLTQSPGTLSLSPGERATLSCRASHSVSTSSLAWYQQKPGQAPRLLIYDASSRATGIPDRFSGSGSGTDFTLTISRLEPEDFAVYYCQQYGGSPYTFGQGTKLEIK
[1]
  pseudovirus neutralization IC50: 8.36 µg/mL
[2]
  pseudovirus neutralization IC50: > 10 µg/mL
[3]
  pseudovirus neutralization IC50: > 10 µg/mL
[4]
  pseudovirus neutralization IC50: > 10 µg/mL
[5]
  pseudovirus neutralization IC50: > 10 µg/mL
[6]
  pseudovirus neutralization IC50: > 10 µg/mL
[7]
  pseudovirus neutralization IC50: 1.24 µg/mL

B5: BD55-935 (protein)
chain 1: EVQLVESGGDLVQPGRSLRLSCAASGFTFDDYAMHWVRQAPGKGLQWVSGISWNSGIIGYADSVKGRFTISRDNAKNSLYLQMNTLRAEDTALYYCARDGGGGSGERWFAPWGQGTLVTVSS
chain 2: SYVLTQPPSVSVAPGKTASITCGGNTIGSKTVHWYQHKPGQAPVLVVYDDSDRPSGIPERFSGSNSGNTATLTISRVEAGDEADYYCQVWDSDSDHHVFGTGTKVTVL
[1]
  pseudovirus neutralization IC50: > 10 µg/mL
[2]
  pseudovirus neutralization IC50: > 10 µg/mL
[3]
  pseudovirus neutralization IC50: > 10 µg/mL
[4]
  pseudovirus neutralization IC50: > 10 µg/mL
[5]
  pseudovirus neutralization IC50: > 10 µg/mL
[6]
  pseudovirus neutralization IC50: > 10 µg/mL
[7]
  pseudovirus neutralization IC50: > 10 µg/mL

B6: BD55-939 (protein)
chain 1: EVQLVESGGGLVQPGRSLRLSCAASGFTFEDYAMHWVRQAPGRGLEWVSGISWNGGTIGYADSVKGRFIISRDNAKNSLYLQTNSLRAEDTALYYCAKDMFLGDEAYCGGDCFAFDIWGQGTMVTVSS
chain 2: QSVLTQPPSVSGAPGQRVTISCTGSSSNIGPGYDVHWYQQLPGTAPKLLIYGNSNRPSGVPDRFSGSKSGTSASLAITGLQAEDEADYYCQSYDNSLSGLVVFGGGTKLTVL
[1]
  pseudovirus neutralization IC50: 0.843 µg/mL
[2]
  pseudovirus neutralization IC50: 1.17 µg/mL
[3]
  pseudovirus neutralization IC50: 1.5 µg/mL
[4]
  pseudovirus neutralization IC50: > 10 µg/mL
[5]
  pseudovirus neutralization IC50: > 10 µg/mL
[6]
  pseudovirus neutralization IC50: > 10 µg/mL
[7]
  pseudovirus neutralization IC50: 0.259 µg/mL
